Results of unrelated studies side by side (data: NIAID ChemDB).

Shared fields: tests in culture; species: HIV-1

Conditions beyond the fields shown may differ between rows. Blank or dashed fields: not listed here. ECn is the concentration giving n% inhibition of infection, replication or growth.

| smiles | method | mutations | read-out | cells | strain | setting | value |
|---|---|---|---|---|---|---|---|
| Cc1ccnc2c1NC(=O)c1cccnc1N2C1CC1 | syncytia | RT-Y181C | EC50 | CEM | IIIB E-EBU(RT-Y181C) |  | >50 µg/mL |
| COc1c(O)c(Cl)c2c(c1OC)-c1c(c(Cl)c(O)c(OC)c1OC)C[C@H](C)[C@H](C)C2 | cytopathic effect / MTT | RT-Y188L | EC50 | MT-4 | 1506-RS (RT-Y188L) |  | >20 µM |
| O=c1[nH]cnc2c1ncn2[C@H]1CC[C@@H](CO)O1 | cytopathic effect | RT-A62V S68G T69D V75I F77L F116Y Q151M | EC50 | MT-4 | BI-12.96 (HXB2(RT-A62V S68G T69D V75I F77L F116Y Q151M)) |  | >400 µM |
| Nc1nc(N)c2ncn([C@H]3CO[C@@H](CO)O3)c2n1 | RT activity |  | EC50 | H9 | IIIB |  | 0.075 µM |
| Cc1cn([C@H]2C=C[C@@H](CO)O2)c(=O)[nH]c1=O | ATP |  | EC50 | MT-2 | IIIB |  | 4.8 µM |
| Oc1cc(O)cc(-c2cc3ccc(O)cc3o2)c1 | MTT |  | EC50 | MT-4 | IIIB |  | 7 µg/mL |
| CCNc1cccnc1N1CCN(C(=O)c2cc3cc(OC)ccc3[nH]2)CC1 | syncytia |  | EC50 | CEM | IIIB |  | 0.02 µg/mL |
| Nc1nc2c(ncn2[C@H]2CO[C@@H](CO)O2)c(=O)[nH]1 | RT activity |  | EC50 | MT-4 | IIIB |  | 0.051 µM |
| CC(C)Nc1cccnc1N1CCN(C(=O)c2cc3cc(NS(C)(=O)=O)ccc3[nH]2)CC1 | cytopathic effect | RT-A62V S68G T69D V75I F77L F116Y Q151M | EC50 | MT-4 | BI-12.96 (HXB2(RT-A62V S68G T69D V75I F77L F116Y Q151M)) |  | 0.1 µM |
| CC(C)=CCN1Cc2cc(Cl)cc3[nH]c(=S)n(c23)C[C@@H]1C | plaque count | RT-L74V T215Y | EC50 | HT4 + HT4 LacZ-1 | HIVRTMF (RT L74V) |  | 0.1 µM |
| Cc1ccnc2c1NC(=O)c1cccnc1N2C1CC1 | MTT |  | EC50 | MT-4 | RES056 |  | >15.9 µM |
| C=C(C)OC(=O)N1c2cc(Cl)ccc2NC(=S)C1(C)C | syncytia | RT-L100I | EC50 | CEM | TIBO-1(RT-L100I) |  | 0.053 µM |
| Cc1cn([C@H]2C[C@H](N=[N+]=[N-])[C@@H](CO)O2)c(=O)[nH]c1=O | p24 |  | EC50 | PBMC | JR-CSF |  | 0.0059 µM |
| CC(C)=CCN1Cc2cc(Cl)cc3[nH]c(=S)n(c23)C[C@@H]1C | syncytia | RT-L100I Y181C | EC50 | CEM | IIIB TIBO R82913 STR-1 (RT L100I Y181C) |  | 4 µM |
| C#Cc1ccc(Nc2nccc(Oc3c(C)cc(-c4cn(CC(=O)Nc5ccc(F)cc5)nn4)cc3C)n2)cc1 | MTT | Y188L | EC50 | MT-4 | IIIB |  | >1.41 µM |
| COc1ccc(Oc2c(C(=O)O)oc3cc(O)cc(O)c3c2=O)c(OC)c1 | cytopathic effect / MTT |  | EC50 | MT-4 | IIIB |  | >25 µg/mL |
| CC(C)=CCN1Cc2cc(Cl)cc3[nH]c(=S)n(c23)C[C@@H]1C | syncytia | RT-Y188H | EC50 | CEM | IIIB HEPT-resistant (RT Y188H) |  | ≥5 µg/mL |
| COCOc1cc(O)c(C(=O)/C=C/c2ccc(OCOC)c(OCOC)c2)c(OCOC)c1 | cytopathic effect / MTT |  | EC50 | MT-4 | IIIB |  | >20 µg/mL |
| CCn1c(=O)c(C)cn([C@@H]2O[C@H](CO[Si](C)(C)C(C)(C)C)C3(OS(=O)(=O)C=C3N)[C@H]2O[Si](C)(C)C(C)(C)C)c1=O | syncytia | RT-Y181C | EC50 | CEM | IIIB PYR(RT-Y181C) |  | >50 µg/mL |
| Cc1cc(C#N)cc(C)c1Oc1nc(Nc2ccc(C#N)cc2)nc(N)c1Br | MTT |  | EC50 | MT-4 | RES056 |  | 0.045 µM |
| Nc1ccn([C@H]2CC[C@@H](CO)O2)c(=O)n1 | cytopathic effect | RT-F77L F116Y Q151M | EC50 | MT-4 | FO-08.96 (HXB2 RT F77L F116Y Q151M) |  | >20 µM |
| Cc1cc(=O)c2ccc(N=C=S)cc2o1 | p24 / ELISA |  | EC50 | PBMC | ADA |  | 0.157 µM |
| CC(C)=CCOc1ccc([C@@H]2COc3c(ccc4c3C=CC(C)(C)O4)C2)c(O)c1 | MTT |  | EC50 | MT-4 | IIIB |  | >100 µg/mL |
| C#Cc1ccc(Nc2nccc(Oc3c(C)cc(-c4cn(Cc5ccccc5[N+](=O)[O-])nn4)cc3C)n2)cc1 | MTT |  | EC50 | MT-4 | RES056 |  | >7.22 µM |
| Cc1cn([C@@H]2O[C@H](CO[Si](C)(C)C(C)(C)C)C3(OS(=O)(=O)C=C3N)[C@H]2O[Si](C)(C)C(C)(C)C)c(=O)n(C)c1=O | syncytia | RT-K103N | EC50 | CEM | IIIB TIBO R82913 STR-2 (RT K103N) |  | 0.12 µM |
| CC(C)(C)NC(=O)[C@@H]1CN(Cc2cccnc2)CCN1C[C@@H](O)C[C@@H](Cc1ccccc1)C(=O)N[C@H]1c2ccccc2C[C@H]1O | p24 | PR-L10I K20R M36I/V P63L/S L90M | EC90 | PBMC | BR97 (PR L10I K20R M36I/V P63L/S L90M) |  | 0.011 µM |
| COC(=O)[C@H](C)NP(=O)(OC[C@@H]1C=C[C@H](n2cc(C)c(=O)[nH]c2=O)O1)Oc1ccc(Br)cc1 | p24 | RT-K20R M41L D67N T69N K70R L210W T215Y | EC50 | PBMC | G890-1 Clinical isolate ZDV-resistant |  | 0.006 µM |
| C#Cc1ccc(Nc2nccc(Oc3c(C)cc(-c4cn(CC(=O)Nc5ccc(Br)cc5)nn4)cc3C)n2)cc1 | MTT | Y188L | EC50 | MT-4 | IIIB |  | >19.78 µM |
| CC(=O)c1ccc(C)cc1NC(C(N)=O)c1c(Cl)cccc1Cl | MTT |  | EC50 | MT-4 | IIIB |  | 0.046 µM |
| Nc1nc(=O)n([C@@H]2CS[C@H](CO)O2)cc1F | ATP |  | EC50 | MT-2 | IIIB |  | 0.39 µM |
| CC(C)=CCc1c(O)ccc(C(=O)/C=C/c2ccc(O)cc2)c1O | MTT |  | EC50 | MT-4 | IIIB |  | >20 µg/mL |
| C#C[C@]1(CO)O[C@@H](n2cnc3c(N)nc(F)nc32)C[C@@H]1O | fluorescence | M184I | EC50 | MT4-GFP | Clinical isolate |  | 0.00656 µM |
| CCCCCCCCCCCCCCCCCCCCCCC(=O)O[C@@H]1[C@@H](C)[C@@]2(O)[C@@H](C=C(COC(C)=O)C[C@]3(O)C(=O)C(C)=C[C@@H]23)[C@@H]2C(C)(C)[C@]12O | p24 / ELISA |  | EC50 | C8166 | A17 |  | 1.303 µM |
| C#Cc1ccc(Nc2nccc(Oc3c(C)cc(-c4cn(Cc5ccc(S(N)(=O)=O)cc5)nn4)cc3C)n2)cc1 | MTT |  | EC50 | MT-4 | IIIB |  | 0.029 µM |
| Nc1nc(NC2CC2)c2ncn([C@H]3C=C[C@@H](CO)C3)c2n1 | cytopathic effect / XTT | RT-K65R H221Y | EC50 | MT-2 | Site-directed mutant |  | 2.15 µM |
| COc1ccccc1C(=O)Nc1ccc(Cl)c(C(=O)OC(C)C)c1 |  | RT-Y181C | EC50 |  | UC781-RS(RT-Y181C |  | 10.1 µM |
| CC1(C)CCc2c(cc(O)c3c(=O)c4c(oc23)-c2ccc(O)cc2OC(C(C)(C)O)C4)O1 | cytopathic effect / MTT |  | EC50 | MT-4 | IIIB |  | >40 µg/mL |
| O=S(=O)(c1ccccc1)c1ccccc1 |  |  | EC50 |  |  |  | 7 µM |
| C#Cc1ccc(Nc2nccc(Oc3c(C)cc(-c4cn(-c5cccc(C(=O)OC)c5)nn4)cc3C)n2)cc1 | MTT |  | EC50 | MT-4 | RES056 |  | 45.24 µM |
| Nc1ccn([C@H]2CC[C@@H](CO)O2)c(=O)n1 | syncytia | RT-K103N | EC50 | CEM | IIIB TIBO R82913 STR-2 (RT K103N) |  | 0.02 µM |
| C#Cc1ccc(Nc2nccc(Oc3c(C)cc(-c4cn(Cc5ccccc5)nn4)cc3C)n2)cc1 | MTT | L100I | EC50 | MT-4 | IIIB |  | 1.11 µM |
| Cc1cc(-c2ccc(C#N)cc2)cc(C)c1Oc1ccnc(S(=O)(=O)CC(=O)Nc2ccc(C#N)cc2)n1 | MTT |  | EC50 | MT-4 | IIIB |  | 0.006 µM |
| Cc1cn([C@H]2C=C[C@@H](CO)O2)c(=O)[nH]c1=O | cytopathic effect / XTT | RT-K65R | EC50 | MT-2 | Site-directed mutant |  | 14.74 µM |
| O=c1[nH]cnc2c1ncn2[C@H]1CC[C@@H](CO)O1 | syncytia | RT-K103N | EC50 | CEM | IIIB TIBO R82913 STR-2 (RT K103N) |  | 7.5 µM |
| CCc1c(Sc2ccccn2)n(COCc2ccccc2)c(=O)[nH]c1=O |  |  | EC50 |  |  |  | 0.02 µM |
| CC(C)Nc1cccnc1N1CCN(C(=O)c2cc3ccccc3[nH]2)CC1 | syncytia | RT-V106A | EC50 | CEM | NEV(RT-V106A) |  | 0.88 µM |
| CCOCn1c(Cc2cc(C)cc(C)c2)c(CC)c(=O)[nH]c1=O | syncytia | RT-Y188H | EC50 | CEM | IIIB HEPT-resistant (RT Y188H) |  | 0.65 µg/mL |
| CC(C)=CCN1Cc2cc(Cl)cc3[nH]c(=S)n(c23)C[C@@H]1C | syncytia | RT-G190E | EC50 | CEM | MN-QUIN(RT-G190E) |  | 16 µM |
| CC(C)=CCOc1cc(NC(=S)c2ccoc2C)ccc1Cl |  |  | EC50 | MAC | BaL |  | 0.03 µM |
| Cc1cc(/C=C/C#N)cc(C)c1Oc1ccnc(S(=O)(=O)CC(=O)Nc2ccc(F)cc2)n1 | MTT | E138K | EC50 | MT-4 |  |  | 0.023 µM |
| Cc1cn([C@H]2C[C@H](N=[N+]=[N-])[C@@H](CO)O2)c(=O)[nH]c1=O | p24 | RT-M41L T215Y | EC50 | PBMC | X267-2 Clinical isolate ZDV-resistant |  | 0.4 µM |
| C#Cc1ccc(Nc2nccc(Oc3c(C)cc(-c4cn(-c5ccc(C(=O)OC)cc5)nn4)cc3C)n2)cc1 | MTT | Y181C | EC50 | MT-4 | IIIB |  | 0.34 µM |
| COc1c(O)c(I)c2c(c1OC)-c1c(c(I)c(O)c(OC)c1OC)C[C@H](C)[C@H](C)C2 | cytopathic effect / MTT | RT-Y181C | EC50 | MT-2 | N119 nevirapine-resistant (RT Y181C) |  | >20 µM |
| Cc1cn([C@@H]2O[C@H](CO[Si](C)(C)C(C)(C)C)C3(OS(=O)(=O)C=C3N)[C@H]2O[Si](C)(C)C(C)(C)C)c(=O)n(C)c1=O | syncytia | RT-G190E | EC50 | CEM | MN-QUIN(RT-G190E) |  | 7.5 µM |
| COc1c(O)c(Br)c2c(c1OC)-c1c(c(Br)c(O)c(OC)c1OC)C[C@H](C)[C@H](C)C2 | cytopathic effect / MTT |  | EC50 | MT-4 | IIIB |  | 0.52 µM |
| Nc1ncnc2c1ncn2[C@@H]1O[C@H](OCP(=O)(O)O)C=C1F | p24 / ELISA / antigen |  | EC50 | PBMCs |  |  | 8.5 µM |
| CC(C)=CCc1c(-c2ccc(O)cc2O)oc2c(CC=C(C)C)c(O)cc(O)c2c1=O | cytopathic effect / MTT |  | EC50 | MT-4 | IIIB |  | >100 µg/mL |
| Cc1cn([C@H]2C[C@H](N=[N+]=[N-])[C@@H](CO)O2)c(=O)[nH]c1=O | cytopathic effect |  | EC50 | ATH8 | IIIB |  | <0.25 µg/mL |
| C#Cc1ccc(Nc2nccc(Oc3c(C)cc(-c4cn(CCC(=O)OC)nn4)cc3C)n2)cc1 | MTT | L100I | EC50 | MT-4 | IIIB |  | 5.06 µM |
| Cc1cc(-c2ccc(C#N)cc2)cc(C)c1Oc1ccnc(S(=O)(=O)CC(=O)NC(C)c2ccc(Cl)cc2)n1 | MTT |  | EC50 | MT-4 | IIIB |  | >3.82 µM |
| CC1(C)C=Cc2c(ccc(-c3coc4cc(O)cc(O)c4c3=O)c2O)O1 | MTT |  | EC50 | MT-4 | IIIB |  | >20 µg/mL |
| Cc1cn([C@@H]2O[C@H](CO[Si](C)(C)C(C)(C)C)[C@@]3(OS(=O)(=O)C=C3N)[C@H]2O[Si](C)(C)C(C)(C)C)c(=O)[nH]c1=O | syncytia | RT-L100I E138K | EC50 | CEM | IIIB TIBO R82913 STR-B02 (RT L100I E138K) |  | 3.5 µM |
| COCOc1cc(O)c(C(=O)/C=C/c2ccccc2)c(OCOC)c1 | cytopathic effect / MTT |  | EC50 | MT-4 | IIIB |  | >20 µg/mL |
| Cc1cn([C@H]2C[C@H](N=[N+]=[N-])[C@@H](CO)O2)c(=O)[nH]c1=O | p24 / ELISA / antigen |  | EC50 | PBMCs | UG-92-031 (subtype A) | 4 d | 0.16 µM |

A second listing of 7 rows from above:

smiles,method,mutations,read-out,cells,strain,setting,value
Cc1cn([C@@H]2O[C@H](CO[Si](C)(C)C(C)(C)C)[C@@]3(OS(=O)(=O)C=C3N)[C@H]2O[Si](C)(C)C(C)(C)C)c(=O)[nH]c1=O,syncytia,RT-L100I E138K,EC50,CEM,IIIB TIBO R82913 STR-B02 (RT L100I E138K),,3.5 µM
COc1ccc(Oc2c(C(=O)O)oc3cc(O)cc(O)c3c2=O)c(OC)c1,cytopathic effect / MTT,,EC50,MT-4,IIIB,,>25 µg/mL
COCOc1cc(O)c(C(=O)/C=C/c2ccc(OCOC)c(OCOC)c2)c(OCOC)c1,cytopathic effect / MTT,,EC50,MT-4,IIIB,,>20 µg/mL
C#Cc1ccc(Nc2nccc(Oc3c(C)cc(-c4cn(-c5ccc(C(=O)OC)cc5)nn4)cc3C)n2)cc1,MTT,Y181C,EC50,MT-4,IIIB,,0.34 µM
Cc1cn([C@@H]2O[C@H](CO[Si](C)(C)C(C)(C)C)C3(OS(=O)(=O)C=C3N)[C@H]2O[Si](C)(C)C(C)(C)C)c(=O)n(C)c1=O,syncytia,RT-G190E,EC50,CEM,MN-QUIN(RT-G190E),,7.5 µM
CC(C)=CCOc1cc(NC(=S)c2ccoc2C)ccc1Cl,,,EC50,MAC,BaL,,0.03 µM
CC(C)=CCN1Cc2cc(Cl)cc3[nH]c(=S)n(c23)C[C@@H]1C,plaque count,RT-L74V T215Y,EC50,HT4 + HT4 LacZ-1,HIVRTMF (RT L74V),,0.1 µM